Anti-infective test results gathered from many reports (values: NIAID ChemDB through PubChem).

All rows: growth or infection tests; organism: Mycobacterium avium

Inhibition is in % at the dose shown (toxicity tests: loss of growth or viability). Two numbers with a dash give a range or band. Blank or dashed fields: not listed here. MIC50, MIC90 and the like: level of inhibition, or share of isolates inhibited. Neighbouring rows are from separate reports. ECn: concentration that inhibits the pathogen or its effect by n%.

smiles | dose | method | changes | setting | strain or isolate | measure | result
CCc1nc2ccc(Cl)cn2c1C(=O)NCc1ccc(-c2ccc(OC(F)(F)F)cc2)nc1 | 0.19 µM | fluorescence | - | - | - | inhibition | 85%
CCc1cc(C(N)=S)ccn1 | - | - | - | - | 3337-4 | MBC | 80 µg/mL
N/C(=N\NC(CC(=O)c1ccc(-c2ccccc2)cc1)c1ccncc1)c1ccccn1 | - | - | - | - | 17 strains | MIC50 | 32 µg/mL
O=C(NNC(=O)c1ccncc1)Nc1ccc(F)c(C(F)(F)F)c1 | - | broth dilution | - | 14 d | MY330/88 | MIC100 | >125 µM
Cc1onc(-c2ccccc2Cl)c1C(=O)N[C@@H]1C(=O)N2[C@@H]1SC(C)(C)[C@@H]2C(=O)O | - | - | - | - | ATCC 25291 | Mean MIC | >213 µg/mL
Clc1ccc(Nc2nnc(-c3ccncc3)o2)cc1Cl | - | broth dilution | - | 14 d | MY330/88 | MIC100 | >125 µM
N/C(=N\NC(CC(=O)c1cccc(Cl)c1)c1cccnc1)c1ccccn1 | - | - | - | - | 17 strains | MIC50 | 32 µg/mL
CCc1nc2ccc(Cl)cn2c1C(=O)NCc1ccc(N2CCN(c3ccc(OCC4CC4)cc3)[C@@H](C)C2)c(F)c1.Cl | 0.034 µM | fluorescence | - | - | - | inhibition | 85%
Cc1ccn2c(C(=O)NCc3ccnc(N4CCC(c5ccc(C(F)(F)F)cc5)CC4)c3)c(C)nc2c1 | - | resazurin | - | - | 101 | MIC | 2–10 µM
CC[C@H]1OC(=O)[C@H](C)[C@@H](O[C@H]2C[C@@](C)(OC)[C@@H](O)[C@H](C)O2)[C@H](C)[C@@H](O[C@@H]2O[C@H](C)C[C@H](N(C)C)[C@H]2O)[C@](C)(OC)C[C@@H](C)C(=O)[C@H](C)[C@@H](O)[C@]1(C)O | - | - | - | - | 453 | MBC | 16 µg/mL
Cc1ccn2c(C(=O)NCc3ccc(N4CCN(c5ccc(OC(F)(F)F)cc5)CC4)c(F)c3)c(C)nc2c1 | 0.023 µM | fluorescence | - | - | - | inhibition | 85%
Cc1ccc(NC(=O)NNC(=O)c2ccncc2)cc1 | - | broth dilution | - | 21 d | MY330/88 | MIC100 | 32 µM
N/C(=N\NC(CC(=O)c1ccc(Cl)cc1)c1ccccn1)c1ccccn1 | - | - | - | - | 17 strains | MIC50 | 32 µg/mL
NNC(=O)c1ccncc1 | - | broth dilution | - | 21 d | MY330/88 | MIC100 | >250 µM
Cc1ccn2c(C(=O)NCc3ccc(N4CCC(c5ccc(C(F)(F)F)cc5)CC4)nc3)c(C)nc2c1 | - | resazurin | - | - | 2151 | MIC | 2–10 µM
NC[C@H]1O[C@H](O[C@H]2[C@H](O)[C@@H](O[C@H]3O[C@H](CO)[C@@H](O)[C@H](N)[C@H]3O)[C@H](N)C[C@@H]2N)[C@H](O)[C@@H](O)[C@@H]1O | - | - | - | - | ATCC 25291 | Median MIC | 2.5 µg/mL
Cc1ccc(C(=O)CC(N/N=C(\N)c2ccccn2)c2ccccn2)cc1 | - | - | - | - | 17 strains | MIC90 | 160 µg/mL
O=c1[nH]c(=O)n([C@H]2C[C@H](O)[C@@H](CO)O2)cc1/C=C/Br | 50 µg/mL | - | - | - | ATCC 25291 | inhibition | 0%
O=C(NNC(=O)c1ccncc1)Nc1cc(Cl)cc(Cl)c1 | - | broth dilution | - | 14 d | MY330/88 | MIC100 | 125 µM
Cc1cccc(C(=O)CC(N/N=C(\N)c2ccccn2)c2ccccn2)c1 | - | - | - | - | 17 strains | MIC50 | 160 µg/mL
Cc1nc2ccc(Cl)cn2c1C(=O)NCc1ccc(N2CCN(c3ccc(OC(F)(F)F)cc3)C[C@H]2C)c(F)c1 | 0.036 µM | fluorescence | - | - | - | inhibition | 85%
CC1COc2c(N3CCN(C)CC3)c(F)cc3c(=O)c(C(=O)O)cn1c23 | - | - | - | - | ATCC 25291 | Mean MIC | 6.25 µg/mL
N/C(=N\NC(CC(=O)c1ccccc1)c1ccncc1)c1ccccn1 | - | - | - | - | 17 strains | MIC50 | 64 µg/mL
O=C(NNC(=O)c1ccncc1)Nc1ccc(Br)c(F)c1 | - | broth dilution | - | 14 d | MY330/88 | MIC100 | >125 µM
Cc1ccn2c(C(=O)NCc3ccc(N4CCOCC4)c(F)c3)c(C)nc2c1 | - | resazurin | - | - | 101 | MIC | <2 µM
Cc1cn([C@H]2C[C@H](N=[N+]=[N-])[C@@H](CO)O2)c(=O)[nH]c1=O | 50 µg/mL | - | - | - | ATCC 25291 | inhibition | 0%
N/C(=N\NC(CC(=O)c1ccc(Cl)c(Cl)c1)c1ccncc1)c1ccccn1 | - | - | - | - | 17 strains | MIC50 | 16 µg/mL
CS(C)=O | - | resazurin | Gentamicin-resistant | - | 104 | MIC | >1 µg/mL
O=c1[nH]c(=O)n([C@H]2C=C[C@@H](CO)O2)cc1I | 50 µg/mL | - | - | - | ATCC 25291 | inhibition | 0%
Cc1cn2c(C(=O)NCc3ccc(N4CCC(c5ccc(OC(F)(F)F)cc5)CC4)c(F)c3)c(C)nc2s1.Cl | 0.26 µM | fluorescence | - | - | - | inhibition | 85%
CC(C)c1ccc(NC(=O)NNC(=O)c2ccncc2)cc1 | - | broth dilution | - | 14 d | MY330/88 | MIC100 | 16 µM
Cc1ccn2c(C(=O)NCc3ccc(N(C)C)cc3)c(C)nc2c1 | - | resazurin | - | - | 101 | MIC | <2 µM
CCCCCCc1ccc(NC(=O)NNC(=O)c2ccncc2)cc1 | - | broth dilution | - | 21 d | MY330/88 | MIC100 | 62.5 µM
O=c1[nH]c(=O)n([C@H]2CC[C@@H](CO)O2)cc1I | - | - | - | - | ATCC 25291 | EC50 | >50 µg/mL
CCc1nc2ccc(Cl)cn2c1C(=O)NCc1ccc(N2C[C@H](C)N(c3ccc(OCC(F)(F)F)nc3)C[C@H]2C)c(F)c1.Cl | 0.043 µM | fluorescence | - | - | - | inhibition | 85%
Cc1ccn2c(C(=O)NCc3ccc4c(c3)CCO4)c(C)nc2c1 | - | resazurin | - | - | 101 | MIC | <2 µM

3 of the rows above, restated:

smiles,dose,method,changes,setting,strain or isolate,measure,result
Cc1ccn2c(C(=O)NCc3ccc(N4CCOCC4)c(F)c3)c(C)nc2c1,-,resazurin,-,-,101,MIC,<2 µM
CCc1nc2ccc(Cl)cn2c1C(=O)NCc1ccc(N2CCN(c3ccc(OCC4CC4)cc3)[C@@H](C)C2)c(F)c1.Cl,0.034 µM,fluorescence,-,-,-,inhibition,85%
N/C(=N\NC(CC(=O)c1ccc(Cl)c(Cl)c1)c1ccncc1)c1ccccn1,-,-,-,-,17 strains,MIC50,16 µg/mL